Source: patent US20090221523A1 (priority 2005, published 2009)

What follows are compounds tested on TK+ and TK− strains of HSV-1.
Format: cell-based, herpes simplex virus
For Nc1nc2c(ncn2COCCO)c(=O)[nH]1 [ACV, acyclovir], the “HSV-1 EC50 ratio” value was 286 and >286 and the “HSV-1 Ratio (EC50 ratio for TK− and TK+ viruses)” value was 333. With Nc1ncnc2c1ncn2[C@@H]1O[C@H](CO)[C@@H](O)[C@@H]1O [AraA, vidarabine] the “HSV-1 EC50 ratio” value was 0.78. For O=c1[nH]c(=O)n([C@@H]2O[C@H](CO)[C@@H](O)[C@@H]2O)cc1/C=C/Br [BVAU, sorivudine], the “HSV-1 EC50 ratio” value was over 2000. For O=c1[nH]c(=O)n([C@H]2C[C@H](O)[C@@H](CO)O2)cc1/C=C/Br [BVDU, brivudin], the “HSV-1 EC50 ratio” value was 1111. O=c1[nH]c(=O)n([C@H]2C[C@H](O)[C@@H](CO)O2)cc1Br [BrdU, 5-bromodeoxyuridine] was tested, and the “HSV-1 EC50 ratio” value was 24. With Nc1nc(=O)n([C@@H]2O[C@H](CO)[C@@H](O)[C@@H]2F)cc1I [FIAC, fiacitabine] the “HSV-1 EC50 ratio” value was 78 and 133. In the case of O=c1[nH]c(=O)n([C@@H]2O[C@H](CO)[C@@H](O)[C@@H]2F)cc1I [FIAU, fialuridine], the “HSV-1 EC50 ratio” value is reported as 133 and 78. O=c1[nH]c(=O)n([C@H]2C[C@H](O)[C@@H](CO)O2)cc1F [FdU, 5-fluorodeoxyuridine] was tested, and the “HSV-1 EC50 ratio” value was 1.8. With O=c1[nH]c(=O)n([C@H]2C[C@H](O)[C@@H](CO)O2)cc1I [IDU, idoxuridine] the “HSV-1 EC50 ratio” value was 26 and the “HSV-1 Ratio (EC50 ratio for TK− and TK+ viruses)” value was 26. For O=c1[nH]c(=O)n([C@H]2C[C@H](O)[C@@H](CO)O2)cc1C(F)(F)F [TFT, trifluridine], the “HSV-1 EC50 ratio” value was 1.1.

Where “and” joins values, the source holds several entries; their conditions need not be identical. Equal entries are not always repeated.
